The text below walks through data of US8188085B2, “Antifungal agents” (Merck Sharp & Dohme Corp., priority 2008, dated 2012).

Protein sequences, listed by entry. Tags and fused reporters are not part of them. Residues count along the entry.
UniProt O13428, 1-1897: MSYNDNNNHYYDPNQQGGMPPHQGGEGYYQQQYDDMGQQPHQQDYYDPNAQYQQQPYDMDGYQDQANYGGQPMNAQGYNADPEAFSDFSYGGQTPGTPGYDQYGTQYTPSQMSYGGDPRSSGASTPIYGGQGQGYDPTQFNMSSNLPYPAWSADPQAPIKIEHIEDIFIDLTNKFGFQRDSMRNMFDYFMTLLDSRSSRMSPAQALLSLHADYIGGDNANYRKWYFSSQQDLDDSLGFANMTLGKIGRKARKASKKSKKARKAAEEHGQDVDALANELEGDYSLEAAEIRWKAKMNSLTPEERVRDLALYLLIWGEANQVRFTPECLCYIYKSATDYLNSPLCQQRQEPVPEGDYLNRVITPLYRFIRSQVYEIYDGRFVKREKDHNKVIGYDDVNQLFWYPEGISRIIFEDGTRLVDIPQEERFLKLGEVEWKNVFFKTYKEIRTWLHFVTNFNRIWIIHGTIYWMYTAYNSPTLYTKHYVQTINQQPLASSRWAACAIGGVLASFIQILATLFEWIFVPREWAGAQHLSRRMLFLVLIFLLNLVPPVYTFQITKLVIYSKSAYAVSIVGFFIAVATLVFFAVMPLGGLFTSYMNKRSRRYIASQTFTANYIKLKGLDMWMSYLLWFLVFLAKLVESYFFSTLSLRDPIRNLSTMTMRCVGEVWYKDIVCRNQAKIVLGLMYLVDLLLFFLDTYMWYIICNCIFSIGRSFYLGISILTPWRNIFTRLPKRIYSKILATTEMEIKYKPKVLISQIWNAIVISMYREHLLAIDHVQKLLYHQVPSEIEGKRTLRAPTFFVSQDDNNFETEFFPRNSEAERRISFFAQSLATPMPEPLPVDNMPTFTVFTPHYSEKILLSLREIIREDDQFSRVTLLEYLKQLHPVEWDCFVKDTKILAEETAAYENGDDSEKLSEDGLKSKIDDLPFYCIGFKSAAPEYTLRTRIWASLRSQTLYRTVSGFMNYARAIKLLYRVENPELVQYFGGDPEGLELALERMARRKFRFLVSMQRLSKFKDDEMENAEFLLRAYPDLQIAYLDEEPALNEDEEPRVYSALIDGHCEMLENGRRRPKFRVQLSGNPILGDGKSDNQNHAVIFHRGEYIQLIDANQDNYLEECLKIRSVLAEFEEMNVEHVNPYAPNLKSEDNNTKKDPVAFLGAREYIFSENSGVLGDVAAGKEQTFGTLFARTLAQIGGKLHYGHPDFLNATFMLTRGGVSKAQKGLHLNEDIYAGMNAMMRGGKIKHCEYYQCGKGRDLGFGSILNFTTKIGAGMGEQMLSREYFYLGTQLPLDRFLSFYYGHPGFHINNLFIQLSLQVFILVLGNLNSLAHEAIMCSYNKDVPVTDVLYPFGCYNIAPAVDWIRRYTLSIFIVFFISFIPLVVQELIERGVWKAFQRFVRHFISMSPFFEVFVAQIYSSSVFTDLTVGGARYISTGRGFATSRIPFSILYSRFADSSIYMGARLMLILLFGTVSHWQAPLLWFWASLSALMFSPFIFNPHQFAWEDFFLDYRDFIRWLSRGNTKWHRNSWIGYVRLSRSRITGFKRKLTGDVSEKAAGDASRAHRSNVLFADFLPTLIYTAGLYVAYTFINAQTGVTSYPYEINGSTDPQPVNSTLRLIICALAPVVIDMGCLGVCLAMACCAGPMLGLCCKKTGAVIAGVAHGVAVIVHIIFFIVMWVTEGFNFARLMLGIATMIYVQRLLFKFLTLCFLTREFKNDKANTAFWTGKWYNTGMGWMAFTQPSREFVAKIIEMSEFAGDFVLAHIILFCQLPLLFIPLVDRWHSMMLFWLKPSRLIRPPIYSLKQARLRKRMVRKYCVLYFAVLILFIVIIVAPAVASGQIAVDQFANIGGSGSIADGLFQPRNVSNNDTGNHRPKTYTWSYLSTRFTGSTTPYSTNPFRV

The assay deals with glucan synthase (GS) prepared from Candida albicans MY1055 (Candida albicans, UniProt O13428). Briefly: Glucan synthase inhibition (polymerization assay, 96-well). Type of assay: biochemical. The settings on record: GS from C. albicans MY1055; 60 min incubation at 22° C.; tested form: TFA. Here is the method: The in vitro evaluation of glucan synthase inhibitory activity of compounds was measured in a polymerization assay in 96-well format. Each well contained 100 μL of ^3H-UDPG at 0.5 mM (6000 to 8000 dpm/nmol), 50 mM HEPES pH 7.5 (Sigma), 10% w/v glycerol (Sigma), 1.5 mg/mL bovine serum albumin (Sigma A 9647. Lot 44H0190), 25 mM KF (Fisher), 1 mM EDTA (Gibco ULTRAPURE), 25 μM GTP-γ-S, enzyme sufficient to give 3 to 6 nmoles incorporation during the 60 min incubation at 22° C., and test compound added from wells in 3-fold serial dilutions in 100% DMSO (1 μL/well). The reaction was stopped by the addition of 100 μL of 20% trichloroacetic acid. […] 40 μL/well scintillation fluid (Packard ULTIMA GOLD TM-XR) was added and the sealed plates counted in a WALLAC BETA counter in top-counting mode at an efficiency of approximately 40%. […]
Routine analysis was performed with glucan synthase (GS) prepared from Candida albicans MY1055 by the following procedure: MY1055 was grown in 10 liters YPD medium (10 g yeast extract, 20 g tryptone, 20 g glucose per liter) with vigorous shaking at 30° C., to early stationary phase. […] Extent of breakage was assessed visually at 40× magnification. […]

`CNC(=O)c1ncnn1[C@@H]1C[C@@]23COC[C@](C)([C@@H]2CC[C@H]2C3=CC(=O)[C@@]3(C)[C@H](C(=O)O)[C@@](C)([C@H](C)C(C)C)CC[C@]23C)[C@H]1OC[C@](C)(NC)C(C)C`: the “Candida Albicans GS IC50” value turned out to be 0.018 µg/mL.
